Source: patent US20130137126A1, “USE OF A BETA-G[…] FOR THE DETECTION AND/OR IDENTIFICATION OF C. DIFFICILE” (BIOMERIEUX, priority 2010, published 2013)

System: Clostridium difficile
Assay: Activating effect of arbutin on various beta-glucosidase substrates, colony coloration on agar media
Assay type: cell-based
Method: The eight strains of Clostridium difficile tested in Example 1 were tested on media comprising DHF-beta-glucoside (media A), alizarin-beta-glucoside (media B) or 3HF-beta-glucoside (Media C) and an increasing concentration of arbutin.
The reading of the dishes is then carried out at 24 h and 48 h.
The media used are prepared on the basis of the C. difficile chromID® medium indicated supra, for example 1, to which arbutin is added according to the following table:
According to the substrates, the media are therefore as follows: • DHF-beta-glucoside at 400 mg/L (media TA, 1A, 2A and 3A) • Alizarin-beta-glucoside at 50 mg/L (media TB, 1 B, 2B and 3B) • 3HF-beta-glucoside at 300 mg/L (media TC, 1C, 2C and 3C)
The media are distributed into Petri dishes.
The seeding is performed from 48 h pre-cultures at 37° C. in anaerobiosis.
A suspension in physiological water at 0.5 McF is carried out and then the strains are seeded with the 10 μl calibrated loop.
Readings are performed after 24 h and 48 h of incubation at 37° C. in anaerobiosis.
Reading scale of the enzymatic activity/ coloration • 0=no activity • 0.5=very pale coloration • 1=clear low-intensity coloration • 2=distinct medium-intensity coloration, • 3=presence of an intense coloration, • 4=presence of a very intense coloration.

OC[C@H]1O[C@@H](Oc2ccc(O)cc2)[C@H](O)[C@@H](O)[C@@H]1O [Arbutin, hydroquinone-beta-D-glucoside]
ideal concentration of arbutin (with DHF-beta-glucoside and 3HF-beta-glucoside): ~1 g/L
ideal concentration of arbutin (with alizarin-beta-glucoside): ~0.5 g/L
